Reference: patent US20220195015A1, “Neutralizing anti- sars-cov-2 antibodies” (published 2022)

Target: SARS-CoV-2 spike (S) protein on pseudotyped HIV-1 reporter virus (SARS-CoV-2, UniProt P0DTC2 14-1254)
Assay: cell-based or functional assay

Binder	IC50 [µg/mL]	IC90 [µg/mL]	IC50 and IC90 [ng/ml] (one cell) [ng/mL]
C706 (antibody, V domains shown) VH: EVQLVESGGGLVKPGGSLRLSCAASGFTFSNVWMSWVRQAPGKGLEWVGRIKSKIDGGTTEYAAPVKGRFIISRDDSKNTLSLQMNSLKTEDTAVYYCTTDHGREPPVHWGQGTLVTVSS VL: EIVLTQSPGTLSLSPGERASLSCRARQSVYSNYLAWYQHKSGQAPRLLFYGASSRATDIPDRFSASGSGTDFTLTISRLEPEDFAVYYCLQYGPSPTFGPGTRLEIK	2.03	> 10	
C708 (antibody, V domains shown) VH: EVQLVESGGGLVQPGGSLRLSCAASGFSFSTYWMSWVRQAPGKGLEWVADIKQDGSEKYFVDSVKGRFTISRDNAKNSLYLHLNSLRAEDTAVYYCAREMAGSGNYYWFGYGMDVWGQGTTVTVSS VL: IRMTQSPSSVSASVGDRVTITCRASQGISSWLAWYQQKPGKAPKLLIYAASSLQSGVPSRFSGSESGTDFTLTISSLQPEDFATYYCQQANSFPLTFGGGTKVEIK	0.489	8.86	
C047 (antibody, V domains shown) VH: QVQLQESGPGLVKPSETLSLTCTVSGGSISSTTYYWDWIRQSPGKGLEWIGSIFYTGITYYSPSLKSRVTISVDTSKNQFSLRLNSMTAADTAVYYCARRLRQLWFGPWFDPWGQGTLVTVSS VL: QSALTQPPSASGSPGQSVTISCTGTRSDVGDYNYVSWYQQHPDKAPKLIIYEVTKRPSGVPDRFSGSKSGNTASLTVSGLQAEDEADYYCSSYAGSNNVMFGGGTKLTVL			> 10000
C710 (antibody, V domains shown) VH: QVQLQESGPGLVKPSETLSLTCIVSGGSINSTTYYWDWIRQSPGKGLEWIGSIFYTGITYYSPSLKTRVTISVDTSKNQFSLRLNSMTAADTAVYYCARRLRQLWFGPWFDPWGQGTLVTVSS VL: QSALTQPPSASGSPGQSVTISCTGTRSDVGDYNYVSWYQQHPDKAPKLIIFEVTKRPSGVPDRFSGSKSGNTASLTVSGLQAEDEADYYCSSYAGSSNVMFGGGTKLTVL			> 10000
C096 (antibody, V domains shown) VH: EVQLVESGGGLVKPGGSLRLSCVASGFTFRNAWMNWVRQAPGKGLEWVGRIKANSDGGTIDYAEPVQGRFTISREDSRNSLYLQMNSLKTEDTAVYYCTTGPQYDDFGHSYIVDSWGPGTLVTVSS VL: DIVMTQSPLSLPVTLGEPASISCRSSQSLLHSNGFHFLEWYLQKPGQSPQLLIYVGSNRASGVPDRFSGSGSGTDFTLKISRVEAEDVGVYYCMQTLQTPLTFGGGTKVEIK	0.0802	0.349	
C045 (antibody, V domains shown) VH: EVQLVESGGGLVQPGGSLRLSCAASGFTFSTYSMNWVRQAPGKGLEWVSYISSSSSTIHYADSVKGRFTISRDNAKNSLYLQMNSLRDEDTAVYYCAREAHDGALTDYGDYLNWFDPWGQGTLVTVSS VL: SYELTQPPSVSVAPGKTARITCGGTNIGSKNVHWYQQKPGQAPVLVIYYDNDRPSGIPERFSGSNSGNTATLTISRVEAGDEADYYCQVWDTTSDHFYWVFGGGTKLTVL			> 10000
C709 (antibody, V domains shown) VH: QVQLVQSGAEVRKPGASVKVSCMASGYTFNTYDINWVRQGTGQGLEWMGWMNPNSGNTGHAQKFQGRVAMTVNTSMNTAYMELSSLRSEDTAVYYCARGADMLNVAVGADFDYWGQGTLVTVSS VL: QSALTQPPSASGSPGQSVTISCTGTSSDVGGYNFVSWFQQHPGKAPKLMIYEVSKRPSGVPDRFSGSKSANTASLTVSGLQAEDEADYFCSSYAGSNNWVFGGGTKLTVL	0.407	> 10	
C707 (antibody, V domains shown) VH: EVQLVESGGGLVKPGGSLRLSCAASGFTFSSYSMNWVRQAPGKGLAWVSSISSSNNIIYYADSVKGRFTISRDDAKDSLYLHMKSLRADDTAVYFCARVPSWAPYQLLPGPFDYWGQGILVTVSS VL: IRMTQSPSSLSASVGDRVTITCQASQAIASYLSWYQHKPGRAPKLLIYDASNLEIGVPSRFSGSGSGTDFTFTISSLQSEDNATYYCQQYESLPGTFGGGTKVEIK			> 10000
